Measured values from several laboratories, pooled; numbers as filed in NIAID ChemDB.

All rows: growth or infection tests; species: Hepatitis C virus

An empty or dashed field is not shown. Conditions beyond the fields shown may differ between rows. ECn is the concentration giving n% inhibition of infection, replication or growth. Two numbers with a dash give a range or band.

CCCCCCCCc1ccc(N(C(=O)CN(C)C)c2nc(-c3cccnc3)c(F)s2)cc1C(F)(F)F ; read-out: EC50 ; result: <1 µM
NC(=O)C1(NC(=O)c2ccc3c(C4CCCCC4)c4n(c3c2)CC(=O)Nc2ccccc2-4)CCCC1 ; read by: replicon ; cell line: Huh7 ; read-out: EC50 ; result: 0.01–1 µM
O=C(Nc1ccc(Cl)c(Cl)c1)c1cc(-n2cccc2)n(-c2ccc(Cl)cc2)n1 ; read by: luciferase / replicon ; cell line: Huh 5-2 ; read-out: EC50 ; strain: Con1 (gt 1b) ; result: >159 µM
COc1cc(OC)c(CCC2(C3CCCC3)CC(O)=C(Sc3nc4nc(C)cc(C)n4n3)C(=O)O2)cc1Cl ; read by: replicon ; read-out: EC50 ; strain: WT ; result: 2.3 µM
Nc1ncnc2c1c(I)cn2[C@@H]1O[C@H](CO)[C@@H](O)[C@H]1F ; read by: replicon ; cell line: HCV replicon ; read-out: EC50 ; strain: 1b ; result: 1.02 µM
COc1c(-c2ccc3cc(NS(C)(=O)=O)ccc3c2)cc(-n2ccc(=O)[nH]c2=O)cc1C(C)(C)C ; changes: Y448C ; read by: luciferase ; cell line: Huh7 ; read-out: EC50 ; strain: genotype 1a H77 ; result: 0.902 µM
C=CC1CC1(NC(=O)[C@@H]1C[C@@H](OC(=O)Nc2ccccc2-n2nccn2)CN1C(=O)[C@@H](NC(=O)OC(C)(C)C)C(C)(C)C)C(=O)NS(=O)(=O)C1CC1 ; read by: replicon ; cell line: Huh7 ; read-out: EC50 ; strain: 1b ; result: 0.1–1 µM
CCS(=O)(=O)NC(=O)c1ccc2c(C3CCCCC3)c3n(c2c1)CC(C(=O)N1CCOCC1)=Cc1ccccc1-3 ; read by: replicon ; cell line: Huh7 ; read-out: EC50 ; result: 0.01–1 µM
COc1ccc(-c2nc3ccc(NCc4ccc(Cl)c(C(F)(F)F)c4)cc3n(CCNC(C)=O)c2=O)cc1 ; conditions: 50% human serum ; read by: PCR ; cell line: Huh7 ; read-out: EC50 ; strain: GT1b ; result: >40 µM
NC(=S)Nc1cccc(OCCCCCOc2ccccc2C(=O)Oc2ccccc2)c1 ; read by: reporter gene / fluorescence ; cell line: Ava5-EG(delta4AB)SEAP ; read-out: EC50 ; result: 0.001–1 µM
C=CC1CC1(NC(=O)[C@@H]1C[C@@H](OC(=O)Nc2ccccc2C(=O)c2ccccc2)CN1C(=O)[C@@H](NC(=O)OC(C)(C)C)C(C)(C)C)C(=O)NS(=O)(=O)C1CC1 ; read by: replicon ; cell line: Huh7 ; read-out: EC50 ; strain: 1b ; result: 0.1–1 µM
N#Cc1c(Nc2ccccc2F)s[nH]c1=O ; read by: replicon ; cell line: Huh7 ; read-out: EC50 ; result: 10–50 µM
C=CC1CC1(NC(=O)[C@@H]1C[C@@H](OC(=O)Nc2sc3c(c2C(=O)OCC)CCCC3)CN1C(=O)[C@@H](NC(=O)OC(C)(C)C)C(C)(C)C)C(=O)NS(=O)(=O)C1CC1 ; read by: replicon ; cell line: Huh7 ; read-out: EC50 ; strain: 1b ; result: 1–10 µM
COC(=O)N[C@@H](C)C(=O)N1CCC[C@@H]1c1ncc(-c2cnc(-c3ccc(-c4nc([C@H]5CCCN5C(=O)[C@H](C)NC(=O)OC)[nH]c4C(F)(F)F)cc3)nc2)[nH]1 ; read-out: EC50 ; strain: 1b ; result: 0.00001–0.000999 µM
O=C(Nc1ccccc1)c1cc(-n2cccc2)n(-c2ccccc2)n1 ; read by: luciferase / replicon ; cell line: Huh 5-2 ; read-out: EC50 ; strain: Con1 (gt 1b) ; result: 31.7 µM
OCc1nnc(-c2ccc(N3CCC(Oc4ccccc4C(F)(F)F)CC3)nn2)o1 ; read by: PCR ; cell line: Huh7 ; read-out: EC50 ; strain: GT1b ; result: 0.0019 µM
O=C(O)/C=C/c1ccc(NC(=O)C2(NC(=O)c3ccc4c(C5CCCCC5)c5n(c4c3)CCCc3ncccc3-5)CCCC2)cc1 ; read by: replicon ; cell line: Huh7 ; read-out: EC50 ; result: 0.01–1 µM
CCN(CC)[C@H](C)C(=O)N1CCC[C@@H]1c1ncc(-c2cnc(-c3ccc(-c4nc([C@H]5CCCN5C(=O)[C@H](C)N(CC)CC)[nH]c4C(F)(F)F)cc3)nc2)[nH]1 ; read-out: EC50 ; strain: 1b ; result: 0.00001–0.000999 µM
COc1cccc(OCCCCCOc2cccc(NC(N)=S)c2)c1 ; read by: reporter gene / fluorescence ; cell line: Ava5-EG(delta4AB)SEAP ; read-out: EC50 ; result: 0.001–1 µM
C=CC1CC1(NC(=O)[C@@H]1C[C@@H](OC(=O)Nc2ccccc2-n2nc3cc(OC)c(OC)cc3n2)CN1C(=O)[C@@H](NC(=O)OC(C)(C)C)C(C)(C)C)C(=O)NS(=O)(=O)C1CC1 ; read by: replicon ; cell line: Huh7 ; read-out: EC50 ; strain: 1b ; result: <0.1 µM
O=C(N[C@@H](C(=O)N1CCC[C@H]1c1ncc(-c2ccc(-c3ccc(-c4cnc([C@@H]5CCCN5C(=O)[C@H](NC(=O)C5CC5)c5ccccc5)s4)cc3)cc2)s1)c1ccccc1)C1CC1 ; read by: luciferase / reporter gene ; cell line: Huh7.5 ; read-out: EC50 ; strain: genotype 1b ; result: 0.0000033 µM
COC(=O)/C=C/c1ccc(NC(=O)C2(NC(=O)c3ccc4c(C5CCCCC5)c5n(c4c3)C[C@@H](O)[C@@H](O)c3ncccc3-5)CCCC2)cc1 ; read by: replicon ; cell line: Huh7 ; read-out: EC50 ; result: 0.01–1 µM
C=CC1CC1(NC(=O)[C@@H]1C[C@@H](OC(=O)Nc2cc(C)ccc2F)CN1C(=O)[C@@H](NC(=O)OC(C)(C)C)C(C)(C)C)C(=O)NS(=O)(=O)C1CC1 ; read by: replicon ; cell line: Huh7 ; read-out: EC50 ; strain: 1b ; result: 0.1–1 µM
N#Cc1c(Nc2ccnc(Cl)c2)s[nH]c1=O ; read by: replicon ; cell line: Huh7 ; read-out: EC50 ; result: 10–50 µM
C=CC1CC1(NC(=O)[C@@H]1C[C@@H](OC(=O)Nc2ccccc2SC)CN1C(=O)[C@@H](NC(=O)OC(C)(C)C)C(C)(C)C)C(=O)NS(=O)(=O)C1CC1 ; read by: replicon ; cell line: Huh7 ; read-out: EC50 ; strain: 1b ; result: 0.1–1 µM
COC(=O)c1ccc2c(C3CCCCC3)c3n(c2c1)CC(C(=O)O)=Cc1cc(OCc2ccccc2)ccc1-3 ; read by: replicon ; cell line: Huh7 ; read-out: EC50 ; result: 1–10 µM
COC(=O)N[C@H](C(=O)N1C(c2ncc(-c3ccc(-c4ccc(C5=NC(C6C[C@@H]7C[C@@H]7N6C(=O)[C@@H](NC(=O)OC)C(C)C)=NC5)cc4)cc3)[nH]2)C[C@@H]2CC21)C(C)C ; read-out: EC50 ; strain: 1b ; result: 0.001–0.099 µM
CCOC(=O)/C=C/c1ccc(NC(=O)C2(NC(=O)c3ccc4c(C5CCCCC5)c5n(c4c3)CCCc3cc(O)ccc3-5)CCCC2)cc1 ; read by: replicon ; cell line: Huh7 ; read-out: EC50 ; result: 0.01–1 µM
Nc1ncnc2c1c(I)cn2[C@@H]1O[C@H](CO)[C@@H](O)C1(F)F ; read by: replicon ; cell line: HCV replicon ; read-out: EC50 ; strain: 2a ; result: 1.12 µM
COc1ccc(N(C(N)=O)c2nc(-c3cccnc3)cs2)cc1C(F)(F)F ; read-out: EC50 ; result: <1 µM
COc1ccc(Nc2s[nH]c(=O)c2C#N)cc1 ; read by: replicon ; cell line: Huh7 ; read-out: EC50 ; result: 10–50 µM
CC(=O)N[C@H](C(=O)N1CCC[C@H]1c1ncc(-c2ccc(-c3ccc(-c4cnc([C@@H]5CCCN5C(=O)[C@H](NC(C)=O)c5ccccc5)[nH]4)cc3)nc2)[nH]1)c1ccccc1 ; read-out: EC50 ; strain: 1b ; result: 0.00001–0.000999 µM
S=C(Nc1ccc(N2CCOCC2)cc1)Nc1ccc2c(c1)Cc1cc(Br)ccc1-2 ; read by: reporter gene / fluorescence ; cell line: Ava5-EG(delta4AB)SEAP ; read-out: EC50 ; result: 0.001–1 µM
CC(C)(C)OC(=O)N1CCn2c(c(C3CCCCC3)c3ccc(C(=O)NS(=O)(=O)C4CC4)cc32)-c2ccccc21 ; read by: replicon ; cell line: Huh7 ; read-out: EC50 ; result: 0.01–1 µM
COC(=O)N[C@@H](C(=O)N1CCC[C@@H]1c1ncc(-c2ccc(-c3ccc(-c4cnc([C@H]5CCCN5C(=O)[C@H](NC(=O)OC)c5ccccc5)[nH]4)nn3)nn2)[nH]1)c1ccccc1 ; read-out: EC50 ; strain: 1b ; result: 0.001–0.099 µM
Cc1ccc(-c2ccccc2OCCCCCOc2cccc(NC(N)=S)c2)cc1 ; read by: reporter gene / fluorescence ; cell line: Ava5-EG(delta4AB)SEAP ; read-out: EC50 ; result: 0.001–1 µM
Nc1ncnc2c1c(-c1cccs1)cn2[C@H]1O[C@H](CO)[C@@H](O)C1(F)F ; read by: replicon ; cell line: HCV replicon ; read-out: EC50 ; strain: 2a ; result: 2.24 µM
N#Cc1c(C(=O)Nc2ccccc2)nn(-c2ccccc2)c1-n1cccc1 ; read by: luciferase / replicon ; cell line: Huh 5-2 ; read-out: EC90 ; strain: Con1 (gt 1b) ; result: >241 µM
C=CC1CC1(NC(=O)[C@@H]1C[C@@H](OC(=O)N2CCc3ccccc3C2)CN1C(=O)[C@@H](NCC1CC1)C(C)(C)C)C(=O)NS(=O)(=O)C1CC1 ; read by: replicon ; cell line: Huh7 ; read-out: EC50 ; strain: 1b ; result: 1–10 µM
Nc1ncnc2c1c(-c1ccsc1)cn2[C@H]1O[C@H](CO)[C@@H](O)C1(F)F ; read by: replicon ; cell line: HCV replicon ; read-out: EC50 ; strain: 1b ; result: 0.91 µM
COC(=O)N[C@H](C(=O)N[C@@H](C)c1ncc(-c2ccc(-c3ccc(-c4cnc([C@@H](C)NC(=O)[C@H](NC(=O)OC)c5ccccc5)[nH]4)cn3)nc2)[nH]1)c1ccccc1 ; read-out: EC50 ; strain: 1b ; result: 0.001–0.099 µM
C=CC1CC1(NC(=O)[C@@H]1C[C@@H](OC(=O)NCc2cccc(F)c2)CN1C(=O)[C@@H](NC(=O)OC(C)(C)C)C(C)(C)C)C(=O)NS(=O)(=O)C1CC1 ; read by: replicon ; cell line: Huh7 ; read-out: EC50 ; strain: 1b ; result: >10 µM
CN(C)[C@@H](C(=O)N1CCC[C@H]1c1ncc(-c2ccc(-c3ccc(-c4cnc([C@@H]5CCCN5C(=O)[C@@H](c5ccccc5)N(C)C)[nH]4)cc3)cc2)[nH]1)c1ccccc1 ; read-out: EC50 ; strain: 1b ; result: 0.00001–0.000999 µM
N#Cc1c(C(=O)Nc2ccc(Cl)c(Cl)c2)nn(-c2ccccc2)c1-n1cccc1 ; read by: luciferase / replicon ; cell line: Huh 5-2 ; read-out: EC50 ; strain: Con1 (gt 1b) ; result: 108.1 µM
NC(=S)Nc1cccc(OCCCCCOc2cccc(Nc3ccccc3)c2)c1 ; read by: reporter gene / fluorescence ; cell line: Ava5-EG(delta4AB)SEAP ; read-out: EC50 ; result: 0.001–1 µM
N#Cc1c(NC2C3CC4CC(C3)CC2C4)s[nH]c1=O ; read by: replicon ; cell line: Huh7 ; read-out: EC50 ; result: 1–10 µM
C=CC1CC1(NC(=O)[C@@H]1C[C@@H](OC(=O)Nc2ccccc2OCC)CN1C(=O)[C@@H](NC(=O)OC(C)(C)C)C(C)(C)C)C(=O)NS(=O)(=O)C1CC1 ; read by: replicon ; cell line: Huh7 ; read-out: EC50 ; strain: 1b ; result: 0.1–1 µM
COC(=O)N[C@@H](C(=O)N[C@@H](C)c1ncc(-c2ccc(-c3ncc(-c4cnc([C@H]5CCCN5C(=O)[C@H](NC(=O)OC)c5ccccc5)[nH]4)cn3)cc2)[nH]1)c1ccccc1 ; read-out: EC50 ; strain: 1b ; result: 0.00001–0.000999 µM
OCc1ccn2cc(-c3cn(Cc4cc(Cl)c(Cl)c(Cl)c4)nn3)nc2c1 ; read by: PCR ; cell line: Huh7 ; read-out: EC50 ; strain: GT1b ; result: 0.013 µM
Nc1ncnc2c1c(-c1ccco1)cn2[C@@H]1O[C@H](CO)[C@@H](O)[C@H]1F ; read by: replicon ; cell line: HCV replicon ; read-out: EC50 ; strain: 2a ; result: 10.74 µM
NC(=O)N(c1ccc(F)c(C(F)(F)F)c1)c1nc(-c2cccnc2)cs1 ; read-out: EC50 ; result: <1 µM
Cc1ccccc1C(Nc1s[nH]c(=O)c1C#N)c1ccc(F)cc1C ; read by: replicon ; cell line: Huh7 ; read-out: EC50 ; result: >50 µM
CCCCCN(C)c1ccc(N(C(N)=O)c2nc(-c3ccc(C)nc3)cs2)cc1C(F)(F)F ; read-out: EC50 ; result: <1 µM
O=C(O)/C=C/c1ccc(NC(=O)C2(NC(=O)c3ccc4c(C5CCCCC5)c5n(c4c3)CCCCNc3ccccc3-5)CCCC2)cc1 ; read by: replicon ; cell line: Huh7 ; read-out: EC50 ; result: 0.01–1 µM

Repeating the final 6 entries:

SMILES,conditions,changes,read by,cell line,read-out,strain,result
OCc1ccn2cc(-c3cn(Cc4cc(Cl)c(Cl)c(Cl)c4)nn3)nc2c1,-,-,PCR,Huh7,EC50,GT1b,0.013 µM
Nc1ncnc2c1c(-c1ccco1)cn2[C@@H]1O[C@H](CO)[C@@H](O)[C@H]1F,-,-,replicon,HCV replicon,EC50,2a,10.74 µM
NC(=O)N(c1ccc(F)c(C(F)(F)F)c1)c1nc(-c2cccnc2)cs1,-,-,-,-,EC50,-,<1 µM
Cc1ccccc1C(Nc1s[nH]c(=O)c1C#N)c1ccc(F)cc1C,-,-,replicon,Huh7,EC50,-,>50 µM
CCCCCN(C)c1ccc(N(C(N)=O)c2nc(-c3ccc(C)nc3)cs2)cc1C(F)(F)F,-,-,-,-,EC50,-,<1 µM
O=C(O)/C=C/c1ccc(NC(=O)C2(NC(=O)c3ccc4c(C5CCCCC5)c5n(c4c3)CCCCNc3ccccc3-5)CCCC2)cc1,-,-,replicon,Huh7,EC50,-,0.01–1 µM